Pooled drug test results. Numbers come from NIAID ChemDB, via PubChem.

Shared fields: tests in culture; species: Mycobacterium tuberculosis

Conditions beyond the fields shown may differ between rows. MIC50, MIC90 and the like: level of inhibition, or share of isolates inhibited. Percent inhibition refers to the dose given; in toxicity tests it is the harm to the cells. ECn is the concentration giving n% inhibition of infection, replication or growth. a–b is a range or a potency band. MIC bound: limit read from a one-dose screen. An empty or dashed field is not shown.

compound | dose | read by | strain | read-out | mutations | result
CC1COc2c(N3CCN(C(c4ccccc4)c4ccc(Cl)cc4)CC3)c(F)c([N+](=O)[O-])c3c(=O)c(C(=O)O)cn1c23 |  | agar | MDR-TB | MIC99 |  | 2.63 µM
C=CCN=C(N=Nc1c(O)[nH]c2ccccc12)SCC(=O)c1ccc([N+](=O)[O-])cc1 | 12 µg/mL |  | H37Rv | inhibition |  | 4%
C[C@H]1COc2c(N3CCc4ccccc4C3C(=O)NC(C)(C)C)c(F)cc3c(=O)c(C(=O)O)cn1c23 |  | agar | MDR-TB | MIC99 |  | 3.16 µM
O=C(N/N=C/c1ccc([N+](=O)[O-])cc1)c1cc(-c2ccc(F)cc2F)ccc1O |  | resazurin | H37Rv | MIC |  | >6.25 µg/mL
Cn1c2ccccc2c2cc(C=NNc3nc(-c4ccc(Cl)cc4)cs3)ccc21 |  | fluorescence | H37Rv | EC90 |  | >200 µM
O=C(N/N=C/c1ccccc1)c1cc(-c2ccc(F)cc2F)ccc1O |  | BACTEC | H37Rv | MIC |  | >6.25 µg/mL
CCOC(=O)c1cc(-c2cccc([N+](=O)[O-])c2)n(CCC(=O)NN)c1C |  | BACTEC | H37Rv | EC50 |  | >6.25 µg/mL
CCCCN1C(=O)C(C)S/C1=N\N=C1/C(=O)Nc2ccccc21 |  |  | H37Rv | EC50 |  | >12 µg/mL
CCN(CC)Cc1cc(Nc2ccnc3cc(Cl)ccc23)ccc1O |  | resazurin | H37Rv | MIC |  | >20 µg/mL
CC(C)CC(NC(=O)C(Cc1ccccc1)NC(=O)C1CCCN1C(=O)OCc1ccccc1)C(=O)OC(C)(C)C |  | BACTEC | H37Rv | MIC bound |  | >12.5 µg/mL
Cn1c2ccccc2c2cc(C=NNc3nc(-c4ccc(Br)cc4)cs3)ccc21 |  | fluorescence | H37Rv | EC90 |  | 160 µM
O=C(C(=O)n1ncc(Cl)c(Cl)c1=O)n1ncc(Cl)c(Cl)c1=O |  | BACTEC | H37Rv | MIC bound |  | >12.5 µg/mL
O=C(N/N=C/c1ccc(Cl)cc1Cl)c1cc(-c2ccc(F)cc2F)ccc1O | 6.25 µg/mL | resazurin | H37Rv | inhibition |  | 21%
Cc1c(C(=O)O)s/c(=N\N=C2/C(=O)Nc3ccccc32)n1-c1ccccc1.O |  |  | H37Rv | MIC |  | >12.5 µg/mL
Cc1cc(CCN)c(C)c2c1oc1ccccc12 |  | BACTEC | H37Rv | MIC |  | 6.25 µg/mL
NNC(=O)c1ccncc1 |  | resazurin | DR1 | MIC | mmpL3 V681I | 0.025 µg/mL
CC1=[N+]([O-])c2ccccc2C(=O)C1=O | 6.25 µg/mL | resazurin | H37Rv | inhibition |  | -13%
Cn1c2ccccc2c2cc(C=NNC(N)=S)ccc21 |  | fluorescence | H37Rv | EC50 |  | 1.6 µM
CNC1CCCN(c2c(F)cc3c(=O)c(C(=O)O)cn(C4CC4)c3c2OC)C1 |  |  | 100 isolates | MIC50 |  | 0.5 µg/mL
O=C(Nc1ccc(C2=NC3CCCCC3N2)cc1)c1ccc(C(=O)Nc2ccc(C3=NC4CCCCC4N3)cc2)cc1 |  | BACTEC | H37Rv | MIC bound |  | >6.25 µg/mL
CCSc1ncnc2c1cnn2COC[C@@H](O)CO |  | BACTEC | H37Rv | EC50 |  | >12.5 µg/mL
COc1cc(/C=C2\N=C(c3cccc(C)c3)OC2=O)ccc1O |  | BACTEC | H37Rv | MIC bound |  | >12.5 µg/mL
Cn1c2ccccc2c2cc(C=NNc3nc(-c4ccccc4)cs3)ccc21 |  | fluorescence | H37Rv | EC50 |  | 35 µM
CO[C@H]1/C=C/O[C@@]2(C)Oc3c(C)c(O)c4c(O)c(c(/C=N/N5CCN(C)CC5)c(O)c4c3C2=O)NC(=O)/C(C)=C\C=C\[C@H](C)[C@H](O)[C@@H](C)[C@@H](O)[C@@H](C)[C@H](OC(C)=O)[C@@H]1C |  |  | H37Rv | MIC |  | 0.5 µg/mL
O=C(O)Cc1cc(C2CCCCC2)nc2c(C3CCCCC3)cccc12 | 6.25 µg/mL |  | H37Rv | inhibition |  | 9%
CO[C@H]1/C=C/O[C@@]2(C)Oc3c(C)c(O)c4c(O)c(c(C=Nc5cccc(C)c5)c(O)c4c3C2=O)NC(=O)/C(C)=C\C=C\[C@H](C)[C@H](O)[C@@H](C)[C@@H](O)[C@@H](C)[C@H](OC(C)=O)[C@@H]1C |  |  | H37Rv | MIC |  | 5 µg/mL
CCOC(=O)c1cc(-c2ccc(-c3ccccc3)cc2)n(CCC(=O)NN)c1C | 6.25 µg/mL | BACTEC | H37Rv | inhibition |  | 0%
CO[C@H]1/C=C/O[C@@]2(C)Oc3c(C)c(O)c4c(O)c(c(/C=N/NC(N)=O)c(O)c4c3C2=O)NC(=O)/C(C)=C\C=C\[C@H](C)[C@H](O)[C@@H](C)[C@@H](O)[C@@H](C)[C@H](OC(C)=O)[C@@H]1C |  |  | H37Rv | MIC |  | 5 µg/mL
COC(=O)c1cc(C2CCCCC2)c2ccccc2n1 | 6.25 µg/mL |  | H37Rv | inhibition |  | 15%
Oc1cc(O)c2c(c1)O[C@H](c1ccc(O)c(O)c1)[C@H](O)[C@H]2c1c(O)cc(O)c2c1O[C@H](c1ccc(O)c(O)c1)[C@H](O)C2 |  | BACTEC | H37Rv | MIC |  | ≥12.5 µg/mL
O=C(N/N=C/c1ccc([N+](=O)[O-])o1)c1cc(-c2ccc(F)cc2F)ccc1O | 6.25 µg/mL | resazurin | H37Rv | inhibition |  | 34%
Cc1cccc(/C=N/NC(=S)N(C)C)n1.[Cl][Cu][Cl] |  |  | R506 | MIC90 |  | 0.78 µM
CSC(=S)N/N=C(/C)c1ccco1 |  |  | PAS-R | MIC |  | 0.4 µg/mL
Cn1c2ccccc2c2cc(C=NNc3nc(-c4ccccc4O)cs3)ccc21 |  | fluorescence | H37Rv | EC90 |  | >50 µM
C=C1C(=O)N[C@@H](CC(C)C)C(=O)N[C@H](CC(C)C)C(=O)N[C@H](C(=O)O)[C@H](C)C(=O)N[C@H](CCCN=C(N)N)C(=O)N[C@@H](/C=C/C(C)=C/[C@H](C)[C@H](Cc2ccccc2)OC)[C@@H](C)C(=O)N[C@@H](C(=O)O)CCC(=O)N1C |  | resazurin | H37Rv | MIC |  | 13.2 µM
COc1ccc2nc3cc(Cl)ccc3c(Nc3cc(CN4CCCC4)c(O)c(CN4CCCC4)c3)c2n1 |  | resazurin | 88.7 | MIC | pyrG V186G | 5–10 µg/mL
CCCCCC1=CC(=O)C=C(OC)C12C(=O)Oc1cc(O)c(C(=O)O)c(CCCCC)c12 |  | BACTEC | H37Rv | MIC bound |  | >12.8 µg/mL
CCOC(=O)c1cc(-c2ccccc2)n(CCC(=O)NN)c1C |  | BACTEC | H37Rv | EC50 |  | >6.25 µg/mL
C=C1[C@@H](C)[C@H]2[C@H](Cc3ccccc3)NC(=O)[C@]23[C@H](OC(C)=O)/C=C/[C@@](C)(O)C(=O)[C@@H](C)C/C=C/[C@H]3[C@@H]1O |  | BACTEC | H37Rv | MIC |  | ≥12.5 µg/mL
OC[C@H](O)COCn1ncc2c(NCc3ccccc3)ncnc21 | 12.5 µg/mL | BACTEC | H37Rv | inhibition |  | 0%
Cc1cccc(OCC(=O)N=Nc2c(O)[nH]c3ccccc23)c1 |  |  | H37Rv | MIC |  | >12.5 µg/mL
CCOc1c(N=Nc2ccc(Cl)cc2Cl)c(C)nn1C(=S)S |  |  | ETA-R | MIC |  | 12.5 µg/mL
CO[C@H]1/C=C/O[C@@]2(C)Oc3c(C)c(O)c4c(O)c(c(C=Nc5ccccc5)c(O)c4c3C2=O)NC(=O)/C(C)=C\C=C\[C@H](C)[C@H](O)[C@@H](C)[C@@H](O)[C@@H](C)[C@H](OC(C)=O)[C@@H]1C |  |  | H37Rv | MIC |  | 5 µg/mL
Cn1c2ccccc2c2cc(C=NNc3nc(-c4cccc([N+](=O)[O-])c4)cs3)ccc21 |  | fluorescence | H37Rv | MIC |  | >200 µM
CCOC(=O)c1c(C)c(-c2ccccc2)n(CC(=O)NN)c1C |  | BACTEC | H37Rv | EC50 |  | >6.25 µg/mL
COC(=O)c1c(C2CCCCC2)nc2ccccc2c1C1CCCCC1 |  |  | H37Rv | MIC |  | 6.25 µg/mL
CCOC(=O)c1cc(-c2ccc(OC)cc2)n(CCC(=O)NN)c1C | 6.25 µg/mL | BACTEC | H37Rv | inhibition |  | 0%
C=C1C([C@@]2(C)C=CC(=O)O[C@]3(C)COC(=O)CC23)[C@H](OC=O)[C@@H](OC(=O)C(O)C(C)CC)[C@]2(C)[C@@H](c3ccoc3)C[C@@H](OC(C)=O)[C@@]12O | 12.5 µg/mL | BACTEC | H37Rv | inhibition |  | 18%
COc1cc2c(cc1OC)CN(c1c(F)c([N+](=O)[O-])c3c(=O)c(C(=O)O)cn4c3c1OCC4C)CC2 |  | agar |  | MIC99 |  | 1.56 µM
NNC(=O)c1cc(-c2ccc(F)cc2F)ccc1O |  | resazurin | H37Rv | MIC |  | >6.25 µg/mL
C[C@H]1CN(c2c(F)cc3c(=O)c(C(=O)O)cn(C4CC4)c3c2OC(F)F)CCN1 |  |  | 100 isolates | MIC50 |  | 0.5 µg/mL
NS(=O)(=O)C1CCCCC1C(=O)NNC(=O)C(=O)Nc1nc(=S)[nH][nH]1 | 12.5 µg/mL | BACTEC | H37Rv | inhibition |  | -7%
CC1CN(c2c(F)cc3c(=O)c(C(=O)O)cn4c3c2OC[C@@H]4C)CC(C)O1 |  | agar |  | MIC99 |  | 4.14 µM
CCOC(=O)c1cc(-c2ccccc2)n(CC(=O)NN)c1C | 6.25 µg/mL | BACTEC | H37Rv | inhibition |  | 18%
COC(=O)Cc1cc(C2CCCC2)nc2c(C3CCCC3)cccc12 |  |  | H37Rv | MIC |  | >6.25 µg/mL
CCNC(=S)N=Nc1c(O)[nH]c2ccccc12 |  |  | H37Rv | EC50 |  | >12 µg/mL
CCOC(=O)c1cc(-c2ccccc2)[nH]c1CC(=O)N/N=C/c1c[nH]c2ccccc12 | 6.25 µg/mL | BACTEC | H37Rv | inhibition |  | 29%
CO[C@H]1/C=C/O[C@@]2(C)Oc3c(C)c(O)c4c(O)c(c(/C=N/N(C)CCN(C)C)c(O)c4c3C2=O)NC(=O)/C(C)=C\C=C\[C@H](C)[C@H](O)[C@@H](C)[C@@H](O)[C@@H](C)[C@H](OC(C)=O)[C@@H]1C |  |  | H37Rv | MIC |  | 0.5 µg/mL
Cc1cn([C@@H]2C[C@H](CCCO)C(CO)O2)c(=O)[nH]c1=O | 6.25 µg/mL | resazurin | H37Rv | inhibition |  | 6%
O=C(O)c1cc(C2CCCCC2)c2ccccc2n1 | 6.25 µg/mL |  | H37Rv | inhibition |  | 9%
CO[C@H]1/C=C/O[C@@]2(C)Oc3c(C)c(O)c4c(O)c(c(/C=N/N5CCN(C)CC5)c(O)c4c3C2=O)NC(=O)/C(C)=C\C=C\[C@H](C)[C@H](O)[C@@H](C)[C@@H](O)[C@@H](C)[C@H](OC(C)=O)[C@@H]1C |  | resazurin | RifR | MIC |  | 50–100 µg/mL
Cn1c(-c2ccc(Br)cc2)cs/c1=N\N=C1/C(=O)Nc2ccccc21.O | 12 µg/mL |  | H37Rv | inhibition |  | 14%
CCOC(=O)C[N+]12CCC34c5cc(OC)c(OC)cc5N5C(=O)CC6OCC=C(C1)C(CC32)C6C54.[Cl-] | 12.5 µg/mL | BACTEC | H37Rv | inhibition |  | 12%
CSc1ncnc2c1cnn2Cc1cn(COC[C@@H](O)CO)nn1 | 12.5 µg/mL | BACTEC | H37Rv | inhibition |  | 0%
CCN(CC)c1cc(C)c2nc3ccc(=[N+](CC)CC)cc-3sc2c1.[Cl-] |  | BACTEC | H37Rv | MIC bound |  | >12.5 µg/mL
CC1COc2c(N3CCN(C(=O)C4COc5ccccc5O4)CC3)c(F)c([N+](=O)[O-])c3c(=O)c(C(=O)O)cn1c23 |  | agar | MDR-TB | MIC99 |  | 1.41 µM
O=CC(O)C(O)C(O)C(O)C(O)C(O)CO | 6.25 µg/mL |  | H37Rv | inhibition |  | -2%
COC(=O)Cc1cc(C2CCCC2)nc2ccccc12 | 6.25 µg/mL |  | H37Rv | inhibition |  | 3%
C=C(C)[C@@H]1CC[C@]2(C)[C@H]3CC[C@@H]4[C@@]5(C)[C@@H]6O[C@@H](OC6=O)C(C)(C)[C@@H]5CC[C@@]4(C)[C@]3(C)CC[C@@H]12 |  | BACTEC | H37Rv | MIC |  | ≥12.5 µg/mL
OC[C@H](O)COCn1cc(Cn2ncc3c(NCc4ccccc4)ncnc32)nn1 |  | BACTEC | H37Rv | EC50 |  | >12.5 µg/mL
O=[N+]([O-])c1ccc(N/N=C/C2C=C(CO)OC=C2O)nc1 |  | BACTEC | H37Rv | MIC bound |  | >12.5 µg/mL
CCCN(CCC)/N=C/c1c2c(O)c3c(O)c(C)c4c(c3c1O)C(=O)[C@@](C)(O/C=C/[C@H](OC)[C@@H](C)[C@@H](OC(C)=O)[C@H](C)[C@H](O)[C@H](C)[C@@H](O)[C@@H](C)/C=C/C=C(/C)C(=O)N2)O4 |  |  | H37Rv | MIC |  | 0.05 µg/mL
COC(=O)[C@@H]1[C@H](O)[C@H](C)C(O)[C@H](C)/C=C\C=C(/C)C(=O)Nc2c(C)c(OC(C)=O)c3c(c2O)C(=O)C(C)=C2OCOC(=C23)/C(C)=C/[C@@](C)(O)[C@H](O)[C@@H](C)[C@H]1OC(C)=O | 12.5 µg/mL | BACTEC | H37Rv | inhibition |  | 99%
Cn1c2ccccc2c2cc(C=NNc3nc(-c4ccc(O)cc4)cs3)ccc21 |  | fluorescence | H37Rv | EC90 |  | >200 µM